The values that follow come from PMC5612115.

The experiment deals with His6-tagged sCD4 (D1-D2). The experiment can be described thus: BLI. Conditions: complex.

Regarding “LT5.J4b12C SOSIP.664 trimeric Env (HIV-1 B/C recombinant, soluble gp140)”, the Kd (usually the equilibrium constant for the complex coming apart) is 19.7 nM and the koff (in general, the rate constant with which the complex falls apart) was 0.000254 s⁻¹.
